Compound potency records, mixed from different reports. Data source: NIAID ChemDB in PubChem.

All rows: tests in culture; agent: Coxsackie virus; read by: cytopathic effect; read-out: EC50

Lines come from different laboratories, so protocols vary.

compound | cells | strain or isolate | value
Cc1ccc(CCCOc2c(C)cc(-c3nnn(C)n3)cc2C)nn1 | HeLa | - | 0.033–0.659 µg/mL
COc1cc2c(cc1OC)[C@@H]1C(N)CSCON1CC2 | VERO | TYPE B4 | 0.2 µg/mL
Nc1ncnc2c1ncn2CCCC(O)CF | HeLa | TYPE B4 | >400 µg/mL
CC1(C)[C@@H](CO)CC[C@@]1(C)Cn1nnc2c(N)ncnc21 | HeLa | TYPE B4 | >400 µg/mL
Brc1ccc(Cn2ccc3nc(-c4ccccc4Br)nc-3c2)cc1 | VERO | NANCY (TYPE B3) | 12 µg/mL
Nc1nc(-n2c(-c3ccccc3)nc3ccc(Br)cc3c2=O)nnc1-c1cccc(Cl)c1Cl | HeLa | TYPE B4 | >16 µg/mL
Cc1nc(CC(O)CO)c2nc[nH]c(=O)n12 | HeLa | TYPE B4 | >400 µg/mL
COc1cc(Cc2cnc(-n3c(C)nc4ccc(Br)cc4c3=O)nc2N)cc(OC)c1OC | HeLa | TYPE B4 | >80 µg/mL
Nc1ncnc2c1ncn2CC[C@H](O)CCO | VERO | TYPE B4 | >400 µg/mL
Cc1cn([C@H]2OC[C@@H](CO)C2F)c(=O)[nH]c1=O | VERO | TYPE B4 | >80 µg/mL
CCS(=O)(=O)c1ccc(Cc2ccc(Cl)c(Cl)c2)nc1C(N)=O | HeLa | TYPE A21 | 5 µg/mL
CCOC(=O)C1Sc2nnc(-c3cn(-c4ccccc4)nc3-c3ccccc3)n2NC1=O | HeLa | TYPE B4 | >80 µg/mL
COc1cc2c(=O)c(C)c(-c3ccccc3)n(C)c2cc1C(C)C | HeLa S3 | TYPE B4/JVB | >3.3 µg/mL
CCOC(=O)Sc1nnc(-c2cn(-c3ccccc3)nc2-c2ccccc2)n1N | VERO | TYPE B4 | >80 µg/mL
NC(=O)c1cncc([C@H]2O[C@H](CO)[C@H](O)[C@@H]2O)c1 | HeLa | TYPE B4 | ≥100 µg/mL
Cc1c(-c2ccccc2)n(-c2ccc(F)cc2)c2ccc(C(C)C)cc2c1=O | HeLa S3 | TYPE B4/JVB | >2 µg/mL
CC=NC(=N)c1nc(-c2cccc(C)c2)n(C/C=C/c2ccccc2)n1 | VERO | TYPE B4 | >10 µg/mL
OCCSCc1c(-c2ccccc2)nc2ccccn12 | VERO | B4 | >70 µg/mL
NC1CSCCN2CCc3c([nH]c4ccccc34)[C@H]12 | VERO | TYPE B4 | 2 µg/mL
Nc1ncnc2c1ncn2[C@@H]1C=C(CCl)[C@@H](O)[C@H]1O | VERO | TYPE B4 | >40 µg/mL
C=CCc1nc(C)n2c(=O)[nH]c(=S)[nH]c12 | HeLa | TYPE B4 | >200 µg/mL
CS(=O)(=O)c1ccc(NCc2ccc(C(F)(F)F)cc2)nc1 | HeLa | TYPE A21 | <1.6 µg/mL
C=C(N=CC)c1nc(-c2cccc(C)c2)n([C@@H]2O[C@H](CO)[C@@H](O)[C@H]2O)n1 | VERO | TYPE B4 | >40 µg/mL
NC(=O)c1cncc([C@@H]2O[C@H](CO)[C@@H](O)[C@@H]2O)c1 | HeLa | TYPE B4 | ≥100 µg/mL
C=CCc1nc(C)n2c(=O)[nH]cnc12 | HeLa | TYPE B4 | >400 µg/mL
S=c1[nH]nc(-c2cn(-c3ccccc3)nc2-c2ccccc2)o1 | HeLa | TYPE B4 | 48 µg/mL
OC[C@H]1O[C@@H](c2cncc(Br)c2)[C@@H](O)[C@H]1O | VERO | TYPE B4 | ≥100 µg/mL
Nc1nc2c(ncn2CC[C@H](O)CCO)c(=O)[nH]1 | VERO | TYPE B4 | >400 µg/mL
Nc1ncnc2c1ncn2C[C@H](O)CO | VERO | TYPE B4 | 70 µg/mL
CS(=O)(=O)c1ccc(NCCc2ccc(Cl)c(Cl)c2)nc1 | HeLa | TYPE A21 | 5 µg/mL
CC1(CO)CCC(Cn2nnc3c(N)nc(N)nc32)C1(C)C | VERO | TYPE B4 | >200 µg/mL
CC1(CO)CCC(Cn2cnc3c(=O)[nH]cnc32)C1(C)C | VERO | TYPE B4 | >200 µg/mL
Cc1nc(-c2cc(C)c(OCCCc3ccc(C(F)F)nn3)c(C)c2)no1 | HeLa | - | 0.033–0.659 µg/mL
CC1(C)[C@@H](CO)CC[C@@]1(C)Cn1cnc2c(=O)[nH]cnc21 | HeLa | TYPE B4 | >400 µg/mL
CS(=O)(=O)c1ccc(Oc2ccc(Cl)c(Cl)c2)c([N+](=O)[O-])c1 | HeLa | TYPE A21 | 267 µM
CC(=O)Nn1c(-c2cn(-c3ccccc3)nc2-c2ccccc2)n[nH]c1=S | VERO | TYPE B4 | >80 µg/mL
Nc1nc2c(ncn2[C@H]2OC[C@@H](CO)C2O)c(=O)[nH]1 | VERO | TYPE B4 | >16 µg/mL
N#CC1=CSc2nnc(-c3cn(-c4ccccc4)nc3-c3ccccc3)n2N=C1N | HeLa | TYPE B4 | >16 µg/mL
Cc1cc(OCCCc2ccc(C=O)nn2)cc(C)c1-c1noc(C(F)F)n1 | HeLa | - | 0.033–0.659 µg/mL
CC1(CO)CCC(Cn2nnc3c(Cl)ncnc32)C1(C)C | VERO | TYPE B4 | >40 µg/mL
OC[C@H]1O[C@H](c2cncc(Br)c2)[C@@H](O)[C@H]1O | VERO | TYPE B4 | ≥100 µg/mL
CO[C@H](CO)[C@@H](O)CCn1cc(C)c(=O)[nH]c1=O | VERO | TYPE B4 | >400 µg/mL
CSc1ccc(Cc2ccc(S(C)(=O)=O)cn2)cc1 | HeLa | TYPE A21 | >10 µg/mL
COc1ccc(-n2c(-c3ccccc3)c(C)c(=O)c3cc(C(C)C)ccc32)cc1 | HeLa S3 | TYPE B4/JVB | >2.5 µg/mL
CCCc1ccc(CCCOc2c(C)cc(-c3nnn(C)n3)cc2C)o1 | HeLa | - | 0.033–0.659 µg/mL
OC[C@H]1O[C@@H](c2cc(Cl)c(F)cc2F)C[C@@H]1O | VERO | TYPE B4 | >80 µg/mL
CS(=O)(=O)c1ccc(Oc2ccc(C(=O)c3ccccc3)cc2)nc1 | HeLa | B4 | 10 µg/mL
CCOc1ccc(-c2cc(N(CC)CC)no2)c(O)c1 | VERO | ATCC VR28 (TYPE B1) | >362 µM
c1ccc(Cn2ccc3nc(-c4ccccc4)nc-3c2)cc1 | VERO | NANCY (TYPE B3) | 6 µg/mL
CS(=O)(=O)c1ccc(NCc2ccc(Cl)cc2)nc1 | HeLa | TYPE A21 | 1.6 µg/mL
NC(=S)c1cncc([C@H]2O[C@H](CO)[C@@H](O)[C@@H]2O)c1 | HeLa | TYPE B4 | ≥100 µg/mL
C[C@@]1(O)[C@@H](CO)O[C@@H](n2cnc3c(N)ncnc32)[C@@H]1O | VERO | TYPE B4 | >100 µg/mL
CC=NC(=N)c1nc(-c2ccc(OC)cc2)n(C/C=C/c2ccccc2)n1 | VERO | TYPE B4 | >100 µg/mL
CC1(CO)CCC(Cn2nnc3c(N)ncnc32)C1(C)C | VERO | TYPE B4 | >40 µg/mL
N#Cc1cc([N+](=O)[O-])ccc1Oc1ccc(Cl)c(Cl)c1 | HeLa | TYPE B4 | 1.5 µg/mL
Cc1cn(CC[C@H](O)CCO)c(=O)[nH]c1=O | VERO | TYPE B4 | >400 µg/mL
N#Cc1cncc([C@@H]2O[C@H](CO)[C@@H](O)[C@@H]2O)c1 | VERO | TYPE B4 | ≥100 µg/mL
c1ccc(C2=Nn3c(nnc3-c3cn(-c4ccccc4)nc3-c3ccccc3)SC2)cc1 | HeLa | TYPE B4 | 1.92 µg/mL
CCN(CC)c1cc(-c2ccc(OC)cc2OC)on1 | VERO | ATCC VR28 (TYPE B1) | 20 µM
CCCc1ccc(CCCOc2cc(C)c(-c3noc(C4CC4)n3)c(C)c2)nn1 | HeLa | - | 0.033–0.659 µg/mL
Nc1ncnc2c1ncn2C[C@H](O)CO | HeLa | TYPE B4 | >200 µg/mL
Cc1ccc(CCCOc2c(C)cc(-c3nnn(C)n3)cc2C)o1 | HeLa | - | 0.033–0.659 µg/mL
Nc1nc2c(ncn2[C@@H]2O[C@H](CO)[C@@H](F)[C@H]2O)c(=O)[nH]1 | VERO B | TYPE B4 | 40 µg/mL
OC[C@H]1O[C@@H](c2cncc(Br)c2)[C@@H](O)[C@@H]1O | VERO | TYPE B4 | ≥100 µg/mL
C=C(N=CC)c1nc(-c2cccc(C)c2)n(C2O[C@H](CO)[C@@H](O)[C@H](O)[C@H]2O)n1 | VERO | TYPE B4 | >100 µg/mL
FC(F)(F)c1ccccc1Cn1ccc2nc(-c3ccccc3)nc-2c1 | VERO | NANCY (TYPE B3) | 8.95 µg/mL
CS(=O)(=O)c1ccc(NCc2ccc(Cl)c(Cl)c2)nc1 | HeLa | TYPE B4 | >10 µg/mL
CC1=C[C@@H](n2cnc3c(N)ncnc32)[C@H](O)[C@@H]1O | VERO | TYPE B4 | >200 µg/mL
CC(=O)Nc1nc2c(CC(O)CO)nc(C)n2c(=O)[nH]1 | HeLa | TYPE B4 | >400 µg/mL
C#CCOc1cc(OC)ccc1-c1cc(N(CC)CC)no1 | VERO | ATCC VR28 (TYPE B1) | 20 µM
CCCCCCCCCCc1nccn(COCCO)c1=O | MRC-5 | TYPE B4 | 100 µM
CON1CCc2c([nH]c3ccccc23)[C@@H]1[C@@H](N)CSC | VERO | TYPE B4 | >40 µg/mL
C=C(N=CC)c1nc(-c2ccc(OC)cc2)n([C@@H]2O[C@H](CO)[C@@H](O)[C@H]2O)n1 | VERO | TYPE B4 | >100 µg/mL
CC1(C)[C@@H](CO)CC[C@@]1(C)Cn1cnc2c(N)ncnc21 | HeLa | TYPE B4 | >400 µg/mL
Nc1ccn([C@@H]2OC[C@H](CO)[C@H]2O)c(=O)n1 | HeLa | TYPE B4 | >80 µg/mL
C=CC1=C[C@@H](n2cnc3c(N)ncnc32)[C@H](O)[C@@H]1O | HeLa | TYPE B4 | >400 µg/mL
Cc1ccc(-n2c(-c3ccccc3)c(C)c(=O)c3cc(C(C)C)ccc32)cc1 | HeLa S3 | TYPE B4/JVB | >2.5 µg/mL
[N-]=[N+]=N[C@H]1[C@@H](F)[C@H](N2C=CC(N)NC2=O)O[C@@H]1CO | HeLa | TYPE B4 | >400 µg/mL
CC1(CO)CCC(Cn2nnc3c(Cl)nc(N)nc32)C1(C)C | VERO | TYPE B4 | >100 µg/mL
Cc1cc(OCCCc2ccc(I)nn2)cc(C)c1-c1noc(C(F)F)n1 | HeLa | - | 0.033–0.659 µg/mL
Cc1nc2ccc(Br)cc2c(=O)n1-c1nnc(-c2cccc(Cl)c2Cl)c(N)n1 | HeLa | TYPE B4 | >16 µg/mL
CC1(CO)CCC(Cn2nnc3c(=O)[nH]c(N)nc32)C1(C)C | HeLa | TYPE B4 | >400 µg/mL
Nc1ccn(CCCC(O)CF)c(=O)n1 | HeLa | TYPE B4 | >400 µg/mL
O=C(Nn1c(-c2cn(-c3ccccc3)nc2-c2ccccc2)n[nH]c1=S)c1ccccc1 | VERO | TYPE B4 | >16 µg/mL
CCN(CC)c1cc(-c2ccc(OC)cc2O)on1 | VERO | ATCC VR28 (TYPE B1) | >381 µM
O=c1ccn([C@@H]2O[C@H](CO)[C@](O)(C(F)(F)F)[C@H]2O)c(=O)[nH]1 | VERO | B4 | >400 µg/mL
O=c1[nH]n2c(-c3cn(-c4ccccc4)nc3-c3ccccc3)nnc2sc1=O | HeLa | TYPE B4 | 48 µg/mL

ECn: concentration that inhibits the pathogen or its effect by n%. An empty or dashed field is not shown. a–b is a range or a potency band.